Anti-infective test results gathered from many reports (values: NIAID ChemDB through PubChem).

All rows: growth or infection tests; organism: Mycobacterium tuberculosis

MIC bound comes from a single tested concentration. Inhibition is in % at the dose shown (toxicity tests: loss of growth or viability). An empty or dashed field is not shown. Rows are shuffled and stem from different studies. MIC50, MIC90 and the like: level of inhibition, or share of isolates inhibited. ECn: concentration that inhibits the pathogen or its effect by n%. a–b is a range or a potency band.

compound,endpoint,read by,tested at,cell line,strain,conditions,result
O=c1ssc(Cl)c1Cl,inhibition,BACTEC,12.5 µg/mL,,H37Rv,,41%
O=C(O)c1c2n(c3cc(N4CCC(O)(c5ccc(Cl)cc5)CC4)c(F)cc3c1=O)CS2,MIC,agar,,,H37Rv,,3.38 µM
Cc1cc2oc(=O)cc(-c3cccc(N)c3)c2c(C)c1-c1ccc(CN2CCOCC2)cc1,EC99,turbidity,,,H37Rv,,0.24 µM
N#Cc1ccn2c(-c3ccccc3)c(-c3ccccc3)c(C(O)C3CCCCC3)c2c1,inhibition,,6.25 µg/mL,,H37Rv,,90%
NC1CCN(c2c(F)cc3c(=O)c(C(=O)O)cn(C4CC4)c3c2Cl)C1,inhibition,,0.1 µg/mL,Macrophages,H37Rv,inside macrophages,60%
CC(C)OC(=S)SSC(=S)NCCNC(=S)SSC(=S)OC(C)C,MIC bound,BACTEC,,,H37Rv,,≤12.5 µg/mL
O=C1NC(NNC(=O)c2ccncc2)=N/C1=C\c1ccc(Cl)cc1,MBC,,,,H37Rv,,>100 µg/mL
COC1(c2nc3ccc(F)cc3s2)C=CC(=NS(=O)(=O)c2ccc(C)cc2)C=C1,inhibition,,6.25 µg/mL,,H37Rv,,78%
CN(C)CCCN1c2ccccc2Sc2ccc(Cl)cc21,MBC,,,,H37Rv,,40 µg/mL
CC1=NN(C(=O)CC(=O)Nc2ccccc2C)C(=O)C1N=Nc1ccc(S(=O)(=O)c2ccc(N=NC3C(=O)N(C(=O)CC(=O)Nc4ccccc4C)N=C3C)cc2)cc1,MIC bound,BACTEC,,,H37Rv,,>12.5 µg/mL
CN(CC(=O)NN)c1ccc2ccccc2c1,EC50,,,,H37Rv,,2 µg/mL
O=C1NC(NNC(=O)c2ccncc2)=N/C1=C\c1c(Cl)cccc1Cl,inhibition,resazurin,12.5 µg/mL,,H37Rv,,17%
ICC1Cc2c(c3ccccc3c3nc4ccccc4nc23)O1,MIC,resazurin,,,H37Rv,,>100 µg/mL
CC1(C)S[C@@H]2[C@H](NC(=O)[C@H](N)c3ccccc3)C(=O)N2[C@H]1C(=O)O,MIC,,,,1789,,92 µM
COc1ccc2cc1Oc1ccc(cc1)C[C@H]1c3cc(c(OC)cc3CCN1C)Oc1c(O)c(OC)cc3c1[C@H](C2)N(C)CC3,MIC bound,BACTEC,,,H37Rv,,>12.5 µg/mL
CC[C@H]1OC(=O)[C@H](C)C(=O)[C@H](C)[C@@H](O[C@@H]2O[C@H](C)C[C@H](N(C)C)[C@H]2O)[C@](C)(OC)C[C@@H](C)C(=O)[C@H](C)[C@H]2N(NCCCc3ccnc4ccccc34)C(=O)O[C@]12C,MIC,,,,H37Rv,,20 µg/mL
CC1(C)CCc2c(c3ccccc3c3[nH]c(-c4c[nH]c5ccccc45)nc23)O1,MIC,resazurin,,,ATCC 35338,,6.25 µg/mL
O=C(Nc1ccc(-c2cccs2)oc1=O)c1cnccn1,MIC bound,BACTEC,,,H37Rv,,>6.25 µg/mL
CC(=O)c1c(-c2ccccc2)c(-c2ccccc2)n2ccc(C#N)cc12,EC50,,,,H37Rv,,>6.25 µg/mL
CN[C@@H]1[C@H](O[C@H]2[C@H](O[C@H]3[C@H](O)[C@@H](O)[C@H](N=C(N)N)[C@@H](O)[C@@H]3N=C(N)N)O[C@@H](C)[C@]2(O)C=O)O[C@@H](CO)[C@H](O)[C@H]1O,EC50,,,,88 drug-resistant isolates,,<100 µg/mL
COc1ccnc(CS(=O)c2nc3ccc(OC(F)F)cc3[nH]2)c1OC,EC50,broth dilution / resazurin,,,Erdman,,>50 µM
O=C1c2ccc(N3CCCCC3)cc2-n2c1nc1ccncc1c2=O,MIC,resazurin,,,H37Rv,,>4 µg/mL
O=c1ccc2ccc3occc3c2o1,MIC90,resazurin,,,H37Ra,,400 µg/mL
NNC(=O)c1ccncc1,MIC,,,,,,0.02 µg/mL
Clc1ccccc1/C=N/Nc1nc2ccccc2nc1-c1ccccc1,MIC,,,,,,>100 µg/mL
CCOC(=O)C(Cc1ccccc1)NOP(=O)(CCC(=O)N1C[C@@H](n2cnc3c(=O)[nH]c(N)nc32)[C@H](OC[C@@H](O)P(=O)(ONC(Cc2ccccc2)C(=O)OCC)ONC(Cc2ccccc2)C(=O)OCC)C1)ONC(Cc1ccccc1)C(=O)OCC,MIC90,,,,H37Rv,,14 µM
O=C(O)c1c2n(c3cc(N4CCN(C(=O)c5ccco5)CC4)c([N+](=O)[O-])cc3c1=O)CS2,MIC,agar,,,H37Rv,,1.71 µM
CC(O)C/C=N/NC(=O)C(=O)N/N=C/CC(C)O,inhibition,BACTEC,12.5 µg/mL,,H37Rv,,7%
COc1c(OCC=C(C)C)c2occc2c2oc(=O)ccc12,MIC90,resazurin,,,H37Ra,,50 µg/mL
CSC(=S)NNC(C)c1nccc2ccccc12,MIC,,,,PAS-R,,6.4 µg/mL
O=c1cc(-c2ccccc2)c2cc(-c3ccncc3)ccc2o1,EC90,turbidity,,,H37Rv,,>250 µM
COc1ccc2cc(NCC(=O)NN)ccc2c1,EC50,,,,H37Rv,,5 µg/mL
Cc1cccc(/C=N/Nc2cc(C)c3cccc(C)c3n2)n1,MIC bound,BACTEC,,,H37Rv,,>12.5 µg/mL
NNC(=O)c1ccncc1,MIC,,,,ATCC 25177,,0.22 µM
CC(C)N=c1cc2n(-c3ccc(Cl)cc3)c3ccccc3nc-2cc1Nc1ccc(Cl)cc1,MIC,,,,,,0.15 µg/mL
O=C(NN1C(=O)CSC1c1ccco1)c1ccncc1,inhibition,BACTEC,0.5 µM,,,,0%
Cc1cc2oc(=O)cc(-c3ccccc3)c2c(C)c1-c1ccncc1,EC99,turbidity,,,H37Rv,,5.6 µM
[2H]C([2H])([2H])OC(=O)N/C=C/CCCc1cc(O)c(C(=O)/C(C)=C/c2cnc(Oc3ccc(F)c(Cl)c3)s2)c(=O)o1,MIC,fluorescence,,,H37Rv,,0.8 µg/mL
O=C(O)c1c2n(c3cc(N4CCN(C(c5ccccc5)c5ccc(Cl)cc5)CC4)c(F)cc3c1=O)CS2,MIC,agar,,,H37Rv,,11.66 µM
CC(C)=CCC[C@H](C)[C@H]1CC[C@H](C)c2c1cc(C)c1ncoc21,EC50,,,,,,<12.5 µg/mL
CC(=O)Nc1ccc2oc3ccc(Cl)cc3c(=O)c2c1,inhibition,BACTEC,12.5 µg/mL,,H37Rv,,16%
CC(O)c1c(-c2ccccc2)c(-c2ccccc2)n2ccc(C#N)cc12,EC50,,,,H37Rv,,<6.25 µg/mL
CC(=O)O[C@@]12CO[C@@H]1C[C@H](O)[C@@]1(C)C(=O)[C@H](OC(=O)N(C)C)C3=C(C)[C@@H](OC(=O)/C=C/c4ccc5ccccc5c4)C[C@@](O)([C@@H](OC(=O)c4ccccc4)[C@H]21)C3(C)C,MIC,PCR,,,IMCJ946.K2,,1.25 µM
CC1COc2c(N3CCN(C)CC3)c(F)cc3c(=O)c(C(=O)O)cn1c23,MIC,,,,,,<1 µg/mL
Cc1ccc(-c2c(C)cc3oc(=O)cc(C)c3c2C)cc1,EC90,turbidity,,,H37Rv,,>250 µM
CC[C@@H](CO)NCCN[C@@H](CC)CO,MIC,,,,ATCC 27294,,14.4 µM
Clc1ccc2nnnn2n1,MIC bound,BACTEC,,,H37Rv,,≤12.5 µg/mL
O=C(/C=C/C=C/c1ccc2c(c1)OCO2)N1CCCCC1,MIC,PCR,,,H37Rv,,>100 µg/mL
O=C1C=C(Nc2ccccc2C(=O)CC(=O)C(=O)Nc2cccc([N+](=O)[O-])c2)c2ccccc2C1=O,MIC bound,resazurin,,,H37Rv,,<6.25 µg/mL
CO[C@H]1/C=C/O[C@@]2(C)Oc3c(C)c(O)c4c(O)c(c(/C=N/N5CCN(C)CC5)c(O)c4c3C2=O)NC(=O)/C(C)=C\C=C\[C@H](C)[C@H](O)[C@@H](C)[C@@H](O)[C@@H](C)[C@H](OC(C)=O)[C@@H]1C,MIC,,,,H37RA 16,,1 µg/mL
CC(=O)Nc1ccc(/C=N/NC(N)=S)cc1,MIC,,,,,,0.4 µg/mL
CC1(C)CCC2=C(O1)c1ccccc1C(=O)C2=O,MIC,resazurin,,,H37Rv,,1.56 µg/mL
CCc1cc(C(N)=S)ccn1,EC50,,,,91 drug-resistant isolates,,<20 µg/mL
CO[C@H]1/C=C/O[C@@]2(C)Oc3c(C)c(O)c4c(O)c(c(/C=N/N5CCN(C)CC5)c(O)c4c3C2=O)NC(=O)/C(C)=C\C=C\[C@H](C)[C@H](O)[C@@H](C)[C@@H](O)[C@@H](C)[C@H](OC(C)=O)[C@@H]1C,MIC,,,,Harlingen (Ser522Leu),,>16 µg/mL
O=C(O)c1c2n(c3cc(N4CCN(C(=O)C5COc6ccccc6O5)CC4)c([N+](=O)[O-])cc3c1=O)CS2,MIC,agar,,,H37Rv,,5.97 µM
N#Cc1ccn2c(-c3ccccc3)c(-c3ccccc3)c(C(O)c3ccc(Cl)cc3)c2c1,EC50,,,,H37Rv,,<6.25 µg/mL
COc1c(OC)c2occc2c2oc(=O)ccc12,EC50,resazurin,,,H37Ra,,84.2 µg/mL
CC1(C)Nc2cccc3c(N=Nc4ccc(N=Nc5ccccc5)c5ccccc45)ccc(c23)N1,MIC,,,,RMP-R,,2 µg/mL
NCC[C@H](O)C(=O)N[C@@H]1C[C@H](N)[C@@H](O[C@H]2O[C@H](CN)[C@@H](O)[C@H](O)[C@H]2O)[C@H](O)[C@H]1O[C@H]1O[C@H](CO)[C@@H](O)[C@H](N)[C@H]1O,MIC,,,,,,1 µg/mL
O=C(Nc1ccc(Br)cc1)c1cnccn1,MIC,BACTEC,,,H37Rv,,≥12.5 µg/mL
Cc1nnc2c(-c3ccccc3)nc3ccccc3n12,MIC,,,,,,100 µg/mL
N=C(N)N=Nc1ccc(O)cc1,MIC bound,BACTEC,,,H37Rv,,>12.5 µg/mL
NC(=O)c1cnc(Cl)cn1,MIC,,,,BDDIS 20,,32 µg/mL
Cc1c(OCC(F)(F)F)ccnc1CS(=O)c1nc2ccc(O)cc2[nH]1.[K+],EC50,broth dilution / resazurin,,,Erdman,,>50 µM
CC[C@H]1OC(=O)[C@H](C)[C@@H](O[C@H]2C[C@@](C)(OC)[C@@H](O)[C@H](C)O2)[C@H](C)[C@@H](O[C@@H]2O[C@H](C)C[C@H](N(C)C)[C@H]2O)[C@](C)(O)C[C@@H](C)C(=O)[C@H](C)[C@@H](O)[C@]1(C)O,MBC,,,,H37Rv,,40 µg/mL
CCOC(=O)C1(n2[nH]c(=O)n(-c3ccccc3)c2=O)CC(C)OC1=O,MIC bound,BACTEC,,,H37Rv,,>12.5 µg/mL
O=C1NC(NNC(=O)c2ccncc2)=N/C1=C\c1ccccc1Cl,MIC,,,,Erdman,,3.13 µg/mL
COc1ccc2nc(S(=O)Cc3ncc(C)c(OC)c3C)[nH]c2c1,EC50,broth dilution / resazurin,,,Erdman,,>50 µM
C=C[C@@H](O)C#CC#C[C@@H](O)/C=C\CCCCCCC,EC50,resazurin,,,H37Ra,,1.6 µg/mL
C=CC[C@H]1C[C@H](n2cc(C)c(=O)[nH]c2=O)O[C@@H]1CO[Si](C)(C)C(C)(C)C,MIC bound,resazurin,,,H37Rv,,>6.25 µg/mL
CC1COc2c(N3CCN(C)CC3)c(F)cc3c(=O)c(C(=O)O)cn1c23,MIC,,,,H37Rv,,0.5–1 µg/mL
COc1cc(-c2nn3c(=O)n(-c4ccc(Cl)cc4)c(=O)nc3s2)cc(OC)c1OC,MIC bound,resazurin,,,H37Rv,,>6.25 µg/mL
Nc1ccc(C(=O)O)c(O)c1,MIC,,,,,,1.5 µg/mL
CCCCCCCCS(=O)(=O)CC(N)=O,MIC,,,,1D4924,,≤6.25 µg/mL
CC(C)(C)OC(=O)NC(CCC(=O)OCc1ccccc1)C(=O)N[C@@H]1C(CO)O[C@@H](n2cnc3c(N)ncnc32)[C@H]1O,inhibition,BACTEC,12.5 µg/mL,,H37Rv,,19%
O=C1NC(Nc2cccc(Cl)c2)=N/C1=C\c1ccccc1Cl,EC50,,,,H37Rv,,<12.5 µg/mL
N#Cc1ccn2c(-c3ccccc3)c(-c3ccccc3)c(Cc3ccccc3)c2c1,EC50,,,,H37Rv,,>6.25 µg/mL
CC(C)Cc1c(C#N)c(C#N)c(N)n1Cc1ccccc1,inhibition,BACTEC,6.25 µg/mL,,H37Rv,,0%
CC[C@@H](CO)NCCN[C@@H](CC)CO,MIC,agar / absorbance,,,H37Rv,,3.125 µg/mL
N#Cc1ccn2c(-c3ccccc3)c(-c3ccccc3)cc2c1,EC50,,,,H37Rv,,>6.25 µg/mL

Repeating the final 7 entries:

compound	endpoint	read by	tested at	cell line	strain	conditions	result
CCCCCCCCS(=O)(=O)CC(N)=O	MIC				1D4924		≤6.25 µg/mL
CC(C)(C)OC(=O)NC(CCC(=O)OCc1ccccc1)C(=O)N[C@@H]1C(CO)O[C@@H](n2cnc3c(N)ncnc32)[C@H]1O	inhibition	BACTEC	12.5 µg/mL		H37Rv		19%
O=C1NC(Nc2cccc(Cl)c2)=N/C1=C\c1ccccc1Cl	EC50				H37Rv		<12.5 µg/mL
N#Cc1ccn2c(-c3ccccc3)c(-c3ccccc3)c(Cc3ccccc3)c2c1	EC50				H37Rv		>6.25 µg/mL
CC(C)Cc1c(C#N)c(C#N)c(N)n1Cc1ccccc1	inhibition	BACTEC	6.25 µg/mL		H37Rv		0%
CC[C@@H](CO)NCCN[C@@H](CC)CO	MIC	agar / absorbance			H37Rv		3.125 µg/mL
N#Cc1ccn2c(-c3ccccc3)c(-c3ccccc3)cc2c1	EC50				H37Rv		>6.25 µg/mL